Results: US20230364057A1, “BACTERIAL DNA GYRASE INHIBITORS AND METHODS OF USE THEREOF” (THE FLORIDA INTERNATIONAL UNIVERSITY BOARD OF TRUSTEES, priority 2022, published 2023)

Tests used:
DNA = DNA intercalation / DNA binding
HepG2 cells = conditions: SI=IC50(HepG2 toxicity)/MIC, minimum SI

## Brc1ccc2c(c1)-c1ccccc1C1=NCCN12 [Compound 217]
DNA
  DNA intercalator: DNA intercalators

## CCOC(=O)c1cc2c(=Cc3ccc(N(C)C)cc3)c3ccccc3n2[n+]1C.O=S(=O)([O-])C(F)(F)F [Compound 239]
DNA
  DNA intercalator: DNA intercalators

## CN1/C(=C/c2cc[n+](C)c3ccccc23)Sc2ccccc21.Cc1ccc(S(=O)(=O)[O-])cc1 [Compound 248]
DNA
  DNA intercalator: DNA intercalators

## CN(C)CCNC(=O)c1cccc2nc3cccc(F)c3nc12.Cl [Compound 241]
DNA
  DNA intercalator: DNA intercalators

## CC1=NN(c2nc(N)nc(/C(C#N)=C\c3ccc([N+](=O)[O-])o3)n2)C(C)(C)C1 [Compound 238]
DNA
  DNA intercalator: DNA intercalators

## CN(C)c1ccc(/C=c2\c3ccccc3n3c2cc(-c2ccccc2)[n+]3C)cc1 [Compound 236]
DNA
  DNA intercalator: DNA intercalator

## COc1ccc2c(c1)/c(=C\c1ccc(N(C)C)cc1)c1cc(-c3ccccc3)[n+](C)n12.O=S(=O)([O-])C(F)(F)F [Compound 237]
DNA
  DNA intercalator: DNA intercalators

## Nc1c2ccccc2nc2ccccc12 [Compound 247]
DNA
  DNA intercalator: DNA intercalators

## COc1cccc2nc3c(C(=O)NCCN(C)C)cccc3cc12.Cl [Compound 240]
DNA
  DNA intercalator: DNA intercalators

## Nc1ccc2cc3ccc(N)cc3nc2c1 [Compound 246]
DNA
  DNA intercalator: DNA intercalators

## C[n+]1c(-c2ccc(C=NNC(=O)c3ccc(C(=O)NN=Cc4ccc(-c5cn6ccccc6[n+]5C)cc4)cc3)cc2)cn2ccccc21 [Compound 229]
DNA
  binding to DNA: does not bind to DNA tightly
HepG2 cells; Mab
  SI Mab: > 18.5
HepG2 cells; Mtb
  SI Mtb: > 28

## CN(C)c1ccc2cc3ccc(N(C)C)cc3nc2c1 [Compound 249]
DNA
  DNA intercalator: DNA intercalators

## CCOc1ccc2nc3cc(N)ccc3c(N)c2c1 [Compound 257]
DNA
  DNA intercalator: DNA intercalators
